From patent EP1328811B1, “HCV MOSAIC ANTIGEN COMPOSITION” (MedMira Inc., priority 2000, dated 2005)

Test system: anti-HCV antibodies
Experiment: Determination of optimal peptide to carrier mass ratio by immunofiltration dotting assay (Example 7)
Assay type: binding, human
Settings: ratio giving an intensity between 2+ and 1+ with pooled HCV positive serum diluted 1 in 5; total of about 25 to 30 peptides per carrier

Row | Sequence | Peptide/HSA Mass Ratio (optimal)
1 | KTKRNTNRRPQDVKF [MDL-2, HCV core region antigenic peptide] | 0.125
2 | GQIVGGVYLLPRRGP [MDL-3, HCV core region antigenic peptide] | 0.5
3 | ATRKTSERSQPRGRRQPI [MDL-5, HCV core region antigenic peptide] | 0.125
4 | MSTNPKPQRKTKRNTNRR [MDL-1, HCV core region antigenic peptide] | 0.5
5 | GPRLGVRATRKTSERSQP [MDL-4, HCV core region antigenic peptide] | 0.5
6 | PKARQPEGRAWAQPG [MDL-6] | 0.25
